# From PMC5829244, “Synergistic effect of mutagenesis and truncation to improve a polyesterase from Clostridium botulinum for polyester hydrolysis” (2018)
# Columns and labels:
# Details in all cases: 100 mM potassium phosphate pH 7, 25 °C
# del71Cbotu_EstA [1] = molecular target: del71Cbotu_EstA (Clostridium botulinum, UniProt A5I055); experiment: p-nitrophenol release, absorbance […] nm, Michaelis-Menten fit
# Cbotu_EstA = Cbotu_EstA (Clostridium botulinum, UniProt A5I055)
# del71Cbotu_EstA [2] = molecular target: del71Cbotu_EstA (Clostridium botulinum, UniProt A5I055, W302H)
# del71Cbotu_EstA [3] = molecular target: del71Cbotu_EstA (Clostridium botulinum, UniProt A5I055, W157A)
# del71Cbotu_EstA [4] = molecular target: del71Cbotu_EstA (Clostridium botulinum, UniProt A5I055, S155A)
# del71Cbotu_EstA [5] = molecular target: del71Cbotu_EstA (Clostridium botulinum, UniProt A5I055, S227A)
# del71Cbotu_EstA [6] = molecular target: del71Cbotu_EstA (Clostridium botulinum, UniProt A5I055, F182Y)
smiles,measurement,setting,value
CCCC(=O)Oc1ccc([N+](=O)[O-])cc1,Km,del71Cbotu_EstA [1],1600 µM
same,Km,Cbotu_EstA,2500 µM
same,Km,del71Cbotu_EstA [2],1000 µM
same,Km,del71Cbotu_EstA [3],1600 µM
same,Km,del71Cbotu_EstA [4],1700 µM
same,Km,del71Cbotu_EstA [5],1200 µM
same,Km,del71Cbotu_EstA [6],1200 µM
